Measured values from several laboratories, pooled; numbers as filed in NIAID ChemDB.

Shared fields: enzyme or target tests; agent: HIV-1; protein: RNase H; measure: IC50

An empty or dashed field is not shown. Rows are shuffled and stem from different studies. ICn is the concentration giving n% inhibition.

structure,read by,changes,strain or isolate,result
COc1ccc(C(=O)Nc2sc3c(c2C(=O)Nc2ccccn2)CCCCC3)cc1OC,RNase H / fluorescence,p66wt/p52C280A HIV-1 RT,-,>50 µM
CC(C)(O)[C@H]1CC[C@@](C)(O[C@H]2O[C@@H](CO)[C@H](O)[C@@H](O)[C@@H]2O)[C@H](O)C1,FRET,-,-,>20 µM
CC(C)=CCC/C(C)=C/CC/C(C)=C/CC/C(C)=C/CC/C(C)=C/CC/C(C)=C/Cc1cc(O)ccc1O,nucleotide incorporation,-,-,>200 µM
COc1cc(/C=C/CO)cc(OC)c1O[C@@H]1O[C@H](CO)[C@@H](O)[C@H](O)[C@H]1O,FRET,-,-,>20 µM
C#CC(/C=C/C/C=C/C=C/C=C/CC#CC(C#CC/C=C/C=C/C=C/CC(C#C)OC(C)=O)OC(C)=O)OC(C)=O,radiometric,-,-,>100 µM
Nc1nc2c(ncn2[C@@H]2O[C@H](COP(=O)(O)O[C@H]3[C@@H](O)[C@H](n4cnc5c(=O)[nH]c(N)nc54)O[C@@H]3CO)[C@@H](O)[C@H]2O)c(=O)[nH]1,RNase H,-,-,15 µM
O=C(NCc1ccc(F)cc1)C1C(=O)N(O)C(=O)c2ccccc21,RNase H / radiometric,-,-,0.36 µM
O=C(OC[C@H]1O[C@@H](OCCc2ccc(O)cc2)[C@H](O)[C@@H](O)[C@@H]1O)c1cc(O)c(O)c(O)c1,FRET,-,-,17.4 µM
COCOC[C@@]12[C@H](O)C[C@@H](C)[C@]3(C[C@@H](c4ccoc4)OC3=O)[C@H]1CCC(=O)[C@]21CO1,RNase H / fluorescence,-,-,>100 µM
Nc1ncnc2c1ncn2[C@@H]1O[C@H](CO)[C@@H](OP(O)(=S)OC[C@H]2O[C@@H](n3cnc4c(=O)[nH]c(NCc5cccc6ccccc56)nc43)[C@H](O)[C@@H]2O)[C@H]1F,RNase H,-,-,40 µM
O=C1Cc2ccc(-c3ccco3)cc2C(=O)N1O,RNase H / substrate cleavage / fluorescence,-,-,0.65 µM
CCOC(=O)c1c(NC(=O)c2ccc(Cl)cc2)sc2c1CCCCC2,RNase H / fluorescence,-,-,72.58 µM
COC(=O)c1c(Br)c(OC)c2c(c1-c1c3c(c(OC)c(Br)c1C(=O)OC)OCO3)OCO2,-,-,IIIB,0.016 µM
COCOCC1=C2[C@H](CO[C@@H]3O[C@@H](CO)[C@@H](O)[C@H](O)[C@@H]3OCOC)C[C@@H](C)[C@]3(C[C@@H](c4ccoc4)OC3=O)[C@H]2CCC1,RNase H / luminescence,-,-,>100 µM
Cc1ccc(Cl)cc1Nc1nc(C(F)(F)F)ccc1C(=O)NN1CCN(c2cccc(Cl)c2)CC1,RNase H / absorbance,V108A,-,>100 µM
O=C1c2ccccc2C(=O)c2c(OCC#CCN3CCOCC3)ccc(O)c21,-,-,-,>100 µM
Nc1sc2c(c1C(=O)Nc1ccccn1)CCCCC2,RNase H / fluorescence,-,-,20.1 µM
Cn1c(=O)c2c(nc3n2CC(O)CN3c2ccc(O)cc2)n(C)c1=O,RNase H / gel,-,-,111 µM
CC(C)=CC[C@H]1C[C@@]23C[C@@H](CC=C(C)C)C(C)(C)[C@@](CC=C(C)C)(C(=O)C(C(=O)c4ccc(O)c(O)c4)=C2OC1(C)C)C3=O,RNase H / fluorescence,-,-,29 µM
COC(=O)c1c(C)cc(OC)c(O)c(=O)c1OC,RNase H / fluorescence,-,-,13.5 µM
O=C(Cc1ccccc1F)Nc1sc2c(c1C(=O)Nc1ccccn1)CCCCC2,RNase H / fluorescence,-,-,>50 µM
COc1c(/C=C/C(=O)c2ccc(-c3ccccc3)cc2)ccc2ccccc12,RNase H / substrate cleavage,-,-,6 µM
O=C(Nc1sc2c(c1C(=O)Nc1ccccn1)CCCCC2)c1ccc(F)cc1,RNase H / fluorescence,-,-,4.72 µM
O=[N+]([O-])c1ccccc1S(=O)(=O)c1ccccc1,-,-,-,>300 µM
C#CCOc1ccc(OCC#C)c2c1C(=O)c1ccccc1C2=O,-,-,-,>88 µM
O=c1nc(NCc2ccc(-c3ccccn3)s2)c2cccnc2n1O,radiometric,-,-,0.013 µM
Nc1nc2c(ncn2[C@@H]2O[C@H](COCO[C@@H]3[C@H](O)[C@@H](CO)O[C@H]3n3cnc4c(=O)[nH]c(N)nc43)[C@@H](O)[C@H]2O)c(=O)[nH]1,RNase H,-,-,5 µM
O=C(/C=C/c1cccn1Cc1ccccc1Cl)CC(=O)C(=O)O,substrate cleavage / fluorescence,R448A,-,20 µM
O=C(Nc1sc2c(c1C(=O)Nc1ccccn1)CCCCC2)c1ccc(Cl)cc1Cl,RNase H / fluorescence,-,-,12.24 µM
Oc1cc(O)c2c(c1)O[C@H](c1cc(O)c(O)c(O)c1)[C@H](O)C2,FRET,-,-,>20 µM
COc1c(/C=C/C(=O)c2ccc(F)cc2)ccc2ccccc12,RNase H / substrate cleavage,-,-,23 µM
CCOC(=O)C(=O)CC(=O)/C=C/c1cccn1Cc1ccc(C)cc1C,substrate cleavage / fluorescence,-,-,8.2 µM
COc1ccc(C(=O)/C=C/c2ccc3ccccc3c2OC)cc1,RNase H / substrate cleavage,-,-,9 µM
O=C(Cc1ccc2ncccc2c1)Nc1sc2c(c1C(=O)Nc1ccccn1)CCCCC2,RNase H / fluorescence,-,-,16.44 µM
COC(=O)c1cc(O)c(O)c(=O)cc1C,RNase H / fluorescence,-,-,0.28 µM
CCC(=O)COc1ccc(O)c2c1C(=O)c1ccccc1C2=O,-,-,-,86 µM
O=C(NCc1ccc(F)cc1)C1C(=O)N(O)C(=O)c2ccccc21,RT activity / RNase H / radiometric,-,-,0.36 µM
Nc1nc(OCCc2ccc([N+](=O)[O-])cc2)c2ncn([C@@H]3O[C@H](COP(O)(=S)O[C@H]4[C@@H](F)[C@H](n5cnc6c(N)ncnc65)O[C@@H]4CO)[C@@H](O)[C@H]3O)c2n1,RNase H,-,-,40 µM

For reference, 4 entries again:

structure	read by	changes	strain or isolate	result
CC(C)=CCC/C(C)=C/CC/C(C)=C/CC/C(C)=C/CC/C(C)=C/CC/C(C)=C/Cc1cc(O)ccc1O	nucleotide incorporation	-	-	>200 µM
O=C(Nc1sc2c(c1C(=O)Nc1ccccn1)CCCCC2)c1ccc(Cl)cc1Cl	RNase H / fluorescence	-	-	12.24 µM
O=C(Cc1ccc2ncccc2c1)Nc1sc2c(c1C(=O)Nc1ccccn1)CCCCC2	RNase H / fluorescence	-	-	16.44 µM
O=C(NCc1ccc(F)cc1)C1C(=O)N(O)C(=O)c2ccccc21	RT activity / RNase H / radiometric	-	-	0.36 µM